Three molecules from patent US6110901A (priority 1992, dated 2000) can be followed below.

Chains of the proteins cited; added tags and fusions are not shown. Residues count along the entry.
UniProt P03300, 1749-2209 limits assumed: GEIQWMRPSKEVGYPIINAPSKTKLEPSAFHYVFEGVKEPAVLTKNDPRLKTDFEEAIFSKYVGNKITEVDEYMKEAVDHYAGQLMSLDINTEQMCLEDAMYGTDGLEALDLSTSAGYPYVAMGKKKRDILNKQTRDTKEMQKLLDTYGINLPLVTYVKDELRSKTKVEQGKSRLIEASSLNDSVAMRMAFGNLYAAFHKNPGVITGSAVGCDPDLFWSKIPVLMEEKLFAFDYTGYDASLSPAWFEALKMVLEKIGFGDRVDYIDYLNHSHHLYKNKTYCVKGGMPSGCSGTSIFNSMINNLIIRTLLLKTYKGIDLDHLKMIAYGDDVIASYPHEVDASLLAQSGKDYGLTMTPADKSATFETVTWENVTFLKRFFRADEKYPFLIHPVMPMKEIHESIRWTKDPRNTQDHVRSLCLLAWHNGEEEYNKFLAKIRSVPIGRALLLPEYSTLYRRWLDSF

For the assay, the target named is Recombinant poliovirus RNA polymerase (Poliovirus type 1, UniProt P03300).
For `Nc1ccn([C@@H]2O[C@H](COP(=O)(O)OP(=O)(O)OP(=O)(O)O)C[C@H]2O)c(=O)n1` [3'-d CTP, 3'-deoxy-CTP], the “Inhibition of transcription with the RNA-dependent RNA polymerase of poliovirus” value (from here on “Inhibition of transcription”) is “effective inhibitors”.

Take `Nc1nc2c(ncn2[C@@H]2O[C@H](COP(=O)(O)OP(=O)(O)OP(=O)(O)O)C[C@H]2O)c(=O)[nH]1` [3'-d GTP, 3'-deoxy-GTP]: the “Inhibition of transcription” value was “effective inhibitors”.

As to `O=c1ccn([C@@H]2O[C@H](COP(=O)(O)OP(=O)(O)OP(=O)(O)O)C[C@H]2O)c(=O)[nH]1` [3'-d UTP, 3'-deoxy UTP], the “Inhibition of transcription” value was “effective inhibitors”.
